Three molecules from BindingDB's records for 26878082 (University of Bonn, 2016) can be followed below.

Structures are written as SMILES.

A word on the IC50: it is the concentration at which inhibition is half-maximal. Low values mean greater potency, high ones weaker potency.

For this assay, the target named is Replicase polyprotein 1ab (Severe acute respiratory syndrome coronavirus, UniProt P0C6X7). Briefly: ASSAY_NAME: No assay is provided DESCRIPTION: This is a review article.

Turning to `O=CC(Cc1c[nH]cn1)NC[C@H]1C[C@@H]2CCCC[C@@H]2CN1C(=O)c1ccc(-c2ccccc2)cc1` (stereo partly drawn), the concentration for half-maximal inhibition (IC50) was 240 µM.
In turn, `O=CC(Cc1c[nH]cn1)NC[C@@H]1C[C@H]2CCCC[C@H]2CN1C(=O)c1ccc(-c2ccccc2)cc1` (stereo partly drawn) yielded an IC50 of 108 µM.
The molecule `O=CC(Cc1c[nH]cn1)NCC1CC2CCCCC2CN1C(=O)c1ccccc1` (stereo not drawn) displayed an IC50 of 68 µM.
